Legend:
[1] = biological target: HIV protease (Human immunodeficiency virus type 1 group M subtype B, UniProt P04585); experiment: Inhibition of HIV protease; assay type: biochemical; settings: compound concentration 99 μmolar
[2] = system: Herpes Simplex Virus Protease; experiment: Inhibition of Herpes Simplex Virus Protease; assay type: biochemical; settings: compound concentration 200 μmolar

## O=P1(Cl)N(Cc2ccccc2)CC=CCN1Cc1ccccc1
[1]
  inhibition of the protease: 36%
[2]
  inhibition of the protease: 44.7%

Reference: patent US6420586B1 (priority 2000, dated 2002)
